## Potato spindle tuber viroid, loop 15: variant abundance in plants

Data from the supplement of Wu et al. 2024, doi:10.1371/journal.ppat.1012142.

The pool varies loop 15 of the PSTVd intermediate strain in the pattern GGAAACCGNNNNNNC; wild type is GGAAACCGCUACUAC (upper and lower strand joined, each 5' to 3', the first 7 letters being the upper strand, closing pairs included).

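Three N. benthamiana plants were inoculated with the whole mutant pool. Progeny were sequenced from the inoculated region (day 5), the margin of the inoculated leaf (day 10) and systemic leaves (day 12).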

Values are reads per thousand in the sample; higher means more abundant, 0 means not found. Each site shows the three plants. "Pool" is the share in the plasmid pool used as inoculum, on the same scale. The inoculated region was read from the minus strand, the other sites from the plus strand. With 43,870-66,106 reads a sample, very low values are single reads.

sequence,pool,inoculated region,leaf margin,systemic leaves
GGAAACCGCGAUGUC,0.208,0.0328 0.0321 0.133,0 0.0223 0.0200,0 0 0
GGAAACCGCGAUUAC,0.240,0.262 0.353 0.286,0.0162 0.0445 0.0801,0.0322 0.0908 0.0912
GGAAACCGCGAUUCC,0.256,0.295 0.305 0.419,0.146 0.178 0.120,0.0322 0 0.0228
GGAAACCGCGAUUGC,0.272,0.344 0.241 0.514,0.146 0.134 0.160,0.0644 0.0908 0.0684
GGAAACCGCGAUUUC,0.304,0.262 0.418 0.286,0.129 0.0891 0.260,0.0161 0.0454 0.0684
GGAAACCGCGCAAAC,0.256,0.0655 0.129 0.0762,0.0162 0 0,0 0 0
GGAAACCGCGCAACC,0.256,0.0655 0.0643 0.0571,0 0 0.0200,0.0161 0 0
GGAAACCGCGCAAGC,0.208,0.131 0.0964 0.152,0.0323 0 0,0.0161 0 0
GGAAACCGCGCAAUC,0.272,0.0491 0.129 0.0571,0.0162 0.0445 0,0.0483 0 0
GGAAACCGCGCACAC,0.224,0.115 0.177 0.114,0.0162 0 0,0 0 0
GGAAACCGCGCACCC,0.288,0.0819 0.0643 0.0762,0 0 0.0401,0 0 0
GGAAACCGCGCACGC,0.224,0.115 0.177 0.0762,0 0 0.0401,0 0 0
GGAAACCGCGCACUC,0.320,0.131 0.112 0.0381,0 0.0445 0,0.0161 0 0
GGAAACCGCGCAGAC,0.192,0.0819 0.0964 0.0381,0 0.0223 0.0200,0 0 0
GGAAACCGCGCAGCC,0.240,0.0655 0.0161 0.0190,0 0.0445 0.0401,0 0 0
GGAAACCGCGCAGGC,0.352,0.0491 0.0803 0.133,0.0323 0 0,0 0 0
GGAAACCGCGCAGUC,0.240,0.0983 0.0964 0.114,0.0162 0.0445 0.0200,0 0 0
GGAAACCGCGCAUAC,0.288,0.295 0.321 0.381,0.129 0.0445 0.120,0.0644 0.106 0.0456
GGAAACCGCGCAUCC,0.288,0.0655 0.0803 0.0381,0.0323 0 0,0 0 0
GGAAACCGCGCAUGC,0.336,0.147 0.0803 0.0571,0 0 0.0601,0.0161 0 0
GGAAACCGCGCAUUC,0.208,0.278 0.321 0.381,0.0808 0.0891 0.140,0.0805 0 0
GGAAACCGCGCCAAC,0.192,0.115 0.161 0.0952,0.0162 0 0,0 0 0
GGAAACCGCGCCACC,0.304,0.0491 0.0964 0.114,0.0162 0 0.0200,0 0 0
GGAAACCGCGCCAGC,0.192,0.0819 0.0643 0.0190,0.0162 0 0,0.0161 0 0
GGAAACCGCGCCAUC,0.208,0.0491 0.112 0.133,0 0 0,0 0 0
GGAAACCGCGCCCAC,0.176,0.115 0.0803 0.0190,0 0 0.0200,0 0 0
GGAAACCGCGCCCCC,0.224,0.197 0.112 0.0190,0 0.0223 0,0 0 0
GGAAACCGCGCCCGC,0.256,0.147 0.0161 0.133,0.0323 0.0223 0,0 0 0
GGAAACCGCGCCCUC,0.176,0.0655 0.0482 0.0952,0.0323 0.0223 0.0200,0.0161 0 0
GGAAACCGCGCCGAC,0.288,0.0819 0.0643 0.0381,0 0.0223 0,0 0 0
GGAAACCGCGCCGCC,0.336,0.0655 0.0803 0.0190,0 0 0,0 0.0151 0
GGAAACCGCGCCGGC,0.176,0.115 0.112 0.0762,0 0 0,0.0161 0 0
GGAAACCGCGCCGUC,0.192,0.229 0.273 0.286,0 0.0223 0,0 0 0
GGAAACCGCGCCUAC,0.192,0.328 0.466 0.571,0.113 0.111 0.100,0.0483 0.0454 0.0684
GGAAACCGCGCCUCC,0.192,0.147 0.145 0.267,0.0162 0.0223 0.0200,0.0161 0 0
GGAAACCGCGCCUGC,0.224,0.0983 0.129 0.0381,0.0162 0.0223 0,0 0 0
GGAAACCGCGCCUUC,0.176,0.295 0.450 0.647,0.113 0.200 0.140,0.0322 0 0
GGAAACCGCGCGAAC,0.192,0.229 0.337 0.400,0.162 0.0668 0.140,0.0483 0.0303 0.137
GGAAACCGCGCGACC,0.208,0.131 0.0803 0.228,0.0162 0.0223 0.0401,0 0 0
GGAAACCGCGCGAGC,0.272,0.377 0.337 0.457,0 0.0668 0,0.0322 0.0151 0
GGAAACCGCGCGAUC,0.176,0.311 0.321 0.419,0.0970 0.0891 0.260,0.0483 0 0
GGAAACCGCGCGCAC,0.160,0.131 0.0803 0.152,0 0.0445 0.0200,0 0 0
GGAAACCGCGCGCCC,0.272,0.131 0.0964 0.0762,0.0323 0 0.0200,0.0322 0 0
GGAAACCGCGCGCGC,0.208,0.0655 0.112 0.133,0 0 0,0 0 0
GGAAACCGCGCGCUC,0.224,0.0983 0.112 0.0762,0 0 0.0200,0 0 0
GGAAACCGCGCGGAC,0.240,0.213 0.241 0.305,0.0647 0.0445 0.120,0.0161 0 0
GGAAACCGCGCGGCC,0.320,0.180 0.145 0.0762,0 0.0223 0,0 0 0
GGAAACCGCGCGGGC,0.208,0.0819 0.161 0.171,0 0.0223 0.0401,0.0161 0 0.0228
GGAAACCGCGCGGUC,0.224,0.344 0.273 0.476,0.0647 0.134 0.140,0.0161 0 0
GGAAACCGCGCGUAC,0.224,0.426 0.193 0.286,0.113 0.0891 0.0801,0.0161 0.0756 0.0684
GGAAACCGCGCGUCC,0.256,0.278 0.289 0.362,0.0808 0.0891 0.100,0.0483 0 0
GGAAACCGCGCGUGC,0.224,0.278 0.321 0.400,0.210 0.0445 0.0801,0.0322 0.136 0.0912
GGAAACCGCGCGUUC,0.240,0.360 0.273 0.324,0.0485 0.0891 0.240,0.0161 0.0908 0.0912
GGAAACCGCGCUAAC,0.240,0.0983 0.112 0.0571,0 0 0,0 0 0
GGAAACCGCGCUACC,0.304,0.131 0.129 0.0571,0 0.0223 0,0 0 0
GGAAACCGCGCUAGC,0.192,0.0819 0.0803 0.0762,0.0485 0 0.0601,0 0 0
GGAAACCGCGCUAUC,0.224,0.164 0.0643 0.171,0 0 0.0601,0 0 0
GGAAACCGCGCUCAC,0.240,0.0491 0.0964 0.114,0 0 0.0200,0 0 0
GGAAACCGCGCUCCC,0.128,0.180 0.0643 0.0571,0 0 0,0 0 0

The opening 5 entries, copied out:

sequence,pool,inoculated region,leaf margin,systemic leaves
GGAAACCGCGAUGUC,0.208,0.0328 0.0321 0.133,0 0.0223 0.0200,0 0 0
GGAAACCGCGAUUAC,0.240,0.262 0.353 0.286,0.0162 0.0445 0.0801,0.0322 0.0908 0.0912
GGAAACCGCGAUUCC,0.256,0.295 0.305 0.419,0.146 0.178 0.120,0.0322 0 0.0228
GGAAACCGCGAUUGC,0.272,0.344 0.241 0.514,0.146 0.134 0.160,0.0644 0.0908 0.0684
GGAAACCGCGAUUUC,0.304,0.262 0.418 0.286,0.129 0.0891 0.260,0.0161 0.0454 0.0684

Wild type was 33.9 per thousand in the pool and the most common sequence in every sample (inoculated region 202, 200, 159; leaf margin 724, 746, 710; systemic leaves 856, 883, 880). Sequences that differ at fixed positions probably stem from PCR or sequencing errors, and defective variants can be carried along by functional ones.